Measurements published in the supplement of paper PMC9931576.
Human monoclonal antibodies against the spike receptor-binding domain (heavy:light variable regions). IC50 against pseudoviruses bearing the spike of naturally observed variants; lower = stronger; >10 µg/ml means not reached at the top dose. No active / inactive call. The stated detection limit is 0.0005 µg/ml; values near or below 0.001 µg/ml lie at the floor of the assay.

B1: BD56-173 (protein)
chain 1: QLQLQESGPRLVKPSETLSLTCTVSGGSISRTSYYWGWIRQPPGKGLEWIGSIYYNENTLYNPSLKSRVTISVDTSKNQFSLKLSSVTAADTAVYYCARDAPGIFNRDGYIRWFDSWGQGTLVTVSS
chain 2: DIQMTQSPSTLSASVGDRVTITCRATQSINGWLAWYQQKPGKAPKLLIDKASTLESGVPSKFSASGFGTEFTLTVSNLQPDDFATYYCQHYNSYSPMFTFGQGTKLEIK
B2: BD56-150 (protein)
chain 1: QVHLVESGGSVVQPGKSLRLSCAASGFNFNLYGMHWVRQAPGKGLEWVSLIWYDGTNEYYGDSVKGRFTISRDNSKNTLYLQINSLRVEDTAVYYCARDQASYDVVAGTSPYFDYWGQGTLVTVSS
chain 2: YELTQPPSVSVSPGQTARITCSGDILSSQNACWYQQKPGQAPVLMIYKNTERPSGIPERFSGSSSGTTVTLTVSGVQAEDEADYYCQSTDTSATYAVFGGGTQLTVL
B3: BD56-159 (protein)
chain 1: QVQLQESGPGLVKPSETLSLTCTVSGASISSYYWTWIRQPPEKGLEWIGHIFYSGSTSINPSLRRRVTMSVDTSKDQVSLKLRSVTAADTAVYYCAGYYNDSTGYDYGFDPWGQGTRVTVSS
chain 2: DIQMTQSPSSLSASVGDRVTITCRASQSIRSYLHWYQQRPGKAPKLLIYAASTLQSGVPSRFSGSASGTDFTLTISSLQPEDFATYYCQQSYSAPLTFGGGTKVEIK
B4: BD56-163 (protein)
chain 1: QVQLVQSGAEVEKPGASVKVSCKASGYTFTSYGINWVRQAPGQGLEWMGWISTFNGDTNYAQKVQGRVTMTTDTSTTTAYMELRSLRSDDTAVYYCARENTYYSDSSAYYFDNWGQGTLVTVSS
chain 2: EIVMTQSPATLSVSPGERATLSCRASQSVTSNLVWYQQKPGQAPRLLIYGASTRATGIPARFSGSGSGTEFTLTISSLQSEDFGVYYCQQYDNWPPMYTFGQGTKLEIK
B5: BD56-146 (protein)
chain 1: EVQLVESGGGFVQPGRSLRLSCAASGFIFDDYAMHWVRQTPGKGLEWVSGITWNGGTIGYADSVKGRFFISRDNAKNSLYLQMIRLRAEDTALYYCAKDLRRGPSLTTEEYFFHSWGQGTLVIVSS
chain 2: SYVLTQPLSVSVAPGKTARITCGGNNIGSKTVHWYHQKPGQAPVLVVYHNSDRPSGIPERFSGSNSGNTATLTISRVEAGDEADYYCQMWDGTTDHVVFGGGTKLTVL
B6: BD56-160 (protein)
chain 1: QVQLVQSGAEVKKPGASVKVSCKASGYTFSNYGITWVRQAPGQGLEWMGWISAYDGYTKSAQNFQGRVTMTTDTSTSTAYMELRSLRSDDTAVYYCARDLEASDYYDSSRNLDYWGQGTLVTVSS
chain 2: SYDLTQPSSVSVSPGQTARITCSGDILAKNYVRWFQQKPGQAPVLVIYKDSERPSGIPERFSGSSSGTTVTLTISGAQVEDEADYYCYSAADNHRVFGGGTKLTVL
B7: DH1126 (protein)
chain 1: EVQLVESGGGLIQPGGSLRLSCAASGFIVSSNYMSWVRQAPGKGLEWVSLIYSGGSTFYADSVKGRFTISRDNSKNTLYLQMNSLRAEDTAVYYCARDLQQLGIDYWGQGTLVTVSS
chain 2: DIQMTQSPSSVSASVGDRVTITCRASQGISSWLAWYQQKPGKAPKLLIYSASSLQSGVPSRFSGSGSGTDFTLTISSLQPEDFATYYCQQTNSFPYFGQGTRLDIK
B8: BD56-152 (protein)
chain 1: EVQLVESGGGLVQPGRSLRLSCAASGFIFEDYAMHWVRQVPGKGLEWVSGISWNSGTIGYADSVKGRFIISRDNAKNSLYLHMSRLRAGDTAFYYCAKDPSFRDSVTYTFSFDSWGQGSLVTVSS
chain 2: SSVLTQPPSVSVAPGETAKITCGGSNVGSKSVHWYQQKPGQAPVLVIQYDSDRPSGIPERFSGSHSGSTAALTITRVEAGDEADYFCQVWDNNRDQVVFGGGTKLTVL
B9: BD56-174 (protein)
chain 1: EVQLVESGGGVVQPGGSLRLSCAASGFSFSSYEMNWVRQAPGKGLEWLSYISNSGGTTYYAESVKGRFTVSRDNAKSTMYLQMRGLRAEDTAVYYCARDGGALSFYPNWFDPWGQGTLVTVSS
chain 2: QSALTQPASVSGSPGQSITISCTGTSSDVGGYDYVSWYQQHPGKAPKLMIYDVTERPSGVSSRFSGSKSGNTASLTISGLQADDEAHYYCSSSTSTVLFGGGTKLTVL
B10: BD56-161 (protein)
chain 1: VQLVQSGAEVKKPGASVKLSCKASGYTFTKYNMHWVRQAPGQGLEWLGMINPSGGSTTYAQKFQGRVTMTRDTSTSTVYVELGSLRSEDTAVFYCARGSHSDTGAFNPDAFDIWGQGTMVTVSS
chain 2: SYRLTQPPSVSVAPGKTARITCGGDSVGSKNVHWYQQKPGQAPVLVIYYDNDRPSGIPERFSGSNSGNTATLTISRVEAGDEADYYCQVWDIGVVFGGGTKLTVL
B11: BD56-169 (protein)
chain 1: EVQLLGSGGGLVQPGRSLRLSCAASGFRFDEYAMHWARQAPGKGLEWVAGISWNGGSIGYADSVKGRFTISRDNAKNSLWLQMNSLRAEDTALYYCAKGPDSGSFAWQIDHWGQGTLVTVSS
chain 2: DIQMTQSPSSVSASVGDRVTITCRASQDIGEWLAWYQQRPGKAPKVLICGASSLQSGVPSRFSGSGSGTDFTLTISSLQPEDFATYYCQQASNFPLTFGGGTKVEIK
B12: BD56-148 (protein)
chain 1: EVQVVESGGGLVKPRGSLRLSCAASGFTFSDAWMNWVRQAPGKGLEWVGHIKSETDGGTTDYAAPVKGRFTILRDDSKNTVYLQMNSLKTEDTAVYYCTVSDVLRYYDYGLDVWGQGTTVTVSS
chain 2: DIQMTQSPSTLSASVGDRVIITCRASQSISNWLAWYQQKPGKAPKLLIYKASSLQSGVPSRFSGSGSGTEFTLTISSLQPDDFATYYCQQYNSYLYTFGQGTKLEI

The binders below were run against SARS-CoV-2 Omicron BA.1 spike pseudovirus (assay: pseudovirus neutralization IC50; higher = weaker neutralization).
Protocol: (§1)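 Single-round VSV luciferase pseudovirus mixed with antibody dilutions for 1 h and put on Huh-7 cells for about a day; IC50 from the dose curve.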
With B1 the “pseudovirus neutralization IC50” value was over 10 µg/mL. In the case of B2, the “pseudovirus neutralization IC50” value is reported as 0.689 µg/mL. For B3, the “pseudovirus neutralization IC50” value was over 10 µg/mL. For B4, the “pseudovirus neutralization IC50” value was 0.879 µg/mL. B5 was tested, and the “pseudovirus neutralization IC50” value was 0.0187 µg/mL. For B6, the “pseudovirus neutralization IC50” value was over 10 µg/mL. In the case of B7, the “pseudovirus neutralization IC50” value is reported as over 10 µg/mL. With B8 the “pseudovirus neutralization IC50” value was 0.0223 µg/mL. With B9 the “pseudovirus neutralization IC50” value was over 10 µg/mL. With B10 the “pseudovirus neutralization IC50” value was 1.44 µg/mL. In the case of B11, the “pseudovirus neutralization IC50” value is reported as 2.11 µg/mL. In the case of B12, the “pseudovirus neutralization IC50” value is reported as 1.31 µg/mL.

These binders were tested against SARS-CoV-2 Omicron BA.2 spike pseudovirus in the same assay as above.
Protocol: as §1
With B1 the “pseudovirus neutralization IC50” value was over 10 µg/mL. B2 was tested, and the “pseudovirus neutralization IC50” value was 0.592 µg/mL. For B3, the “pseudovirus neutralization IC50” value was over 10 µg/mL. In the case of B4, the “pseudovirus neutralization IC50” value is reported as 1.07 µg/mL. With B5 the “pseudovirus neutralization IC50” value was 0.0179 µg/mL. For B6, the “pseudovirus neutralization IC50” value was over 10 µg/mL. With B7 the “pseudovirus neutralization IC50” value was over 10 µg/mL. B8 was tested, and the “pseudovirus neutralization IC50” value was 0.018 µg/mL. B9 was tested, and the “pseudovirus neutralization IC50” value was over 10 µg/mL. In the case of B10, the “pseudovirus neutralization IC50” value is reported as 2.33 µg/mL. B11 was tested, and the “pseudovirus neutralization IC50” value was 1.79 µg/mL. For B12, the “pseudovirus neutralization IC50” value was 2.59 µg/mL.

What follows are binders tested against SARS-CoV-2 Omicron BA.2.75 spike pseudovirus in the same assay as above.
Protocol: as §1
In the case of B1, the “pseudovirus neutralization IC50” value is reported as over 10 µg/mL. With B2 the “pseudovirus neutralization IC50” value was 0.424 µg/mL. In the case of B3, the “pseudovirus neutralization IC50” value is reported as over 10 µg/mL. B4 was tested, and the “pseudovirus neutralization IC50” value was 1.53 µg/mL. For B5, the “pseudovirus neutralization IC50” value was 0.00998 µg/mL. For B6, the “pseudovirus neutralization IC50” value was over 10 µg/mL. With B7 the “pseudovirus neutralization IC50” value was over 10 µg/mL. B8 was tested, and the “pseudovirus neutralization IC50” value was 0.0164 µg/mL. In the case of B9, the “pseudovirus neutralization IC50” value is reported as over 10 µg/mL. With B10 the “pseudovirus neutralization IC50” value was 1.81 µg/mL. In the case of B11, the “pseudovirus neutralization IC50” value is reported as 2.35 µg/mL. B12 was tested, and the “pseudovirus neutralization IC50” value was 1.13 µg/mL.

Each binder was assayed against SARS-CoV-2 Omicron BA.5 spike pseudovirus in the same assay as above.
Protocol: as §1
In the case of B1, the “pseudovirus neutralization IC50” value is reported as over 10 µg/mL. With B2 the “pseudovirus neutralization IC50” value was 0.658 µg/mL. In the case of B3, the “pseudovirus neutralization IC50” value is reported as over 10 µg/mL. With B4 the “pseudovirus neutralization IC50” value was 0.881 µg/mL. For B5, the “pseudovirus neutralization IC50” value was 1.29 µg/mL. For B6, the “pseudovirus neutralization IC50” value was over 10 µg/mL. In the case of B7, the “pseudovirus neutralization IC50” value is reported as over 10 µg/mL. In the case of B8, the “pseudovirus neutralization IC50” value is reported as 1.98 µg/mL. B9 was tested, and the “pseudovirus neutralization IC50” value was over 10 µg/mL. In the case of B10, the “pseudovirus neutralization IC50” value is reported as over 10 µg/mL. B11 was tested, and the “pseudovirus neutralization IC50” value was 1.83 µg/mL. For B12, the “pseudovirus neutralization IC50” value was 1.33 µg/mL.

The binders below were run against SARS-CoV-2 Omicron BQ.1.1 spike pseudovirus in the same assay as above.
Protocol: as §1
For B1, the “pseudovirus neutralization IC50” value was over 10 µg/mL. B2 was tested, and the “pseudovirus neutralization IC50” value was 1.47 µg/mL. With B3 the “pseudovirus neutralization IC50” value was over 10 µg/mL. B4 was tested, and the “pseudovirus neutralization IC50” value was 7.68 µg/mL. B5 was tested, and the “pseudovirus neutralization IC50” value was over 10 µg/mL. In the case of B6, the “pseudovirus neutralization IC50” value is reported as over 10 µg/mL. For B7, the “pseudovirus neutralization IC50” value was over 10 µg/mL. In the case of B8, the “pseudovirus neutralization IC50” value is reported as over 10 µg/mL. In the case of B9, the “pseudovirus neutralization IC50” value is reported as over 10 µg/mL. In the case of B10, the “pseudovirus neutralization IC50” value is reported as over 10 µg/mL. B11 was tested, and the “pseudovirus neutralization IC50” value was 6.87 µg/mL. B12 was tested, and the “pseudovirus neutralization IC50” value was 4.89 µg/mL.

These binders were tested against SARS-CoV-2 Omicron XBB spike pseudovirus in the same assay as above.
Protocol: as §1
In the case of B1, the “pseudovirus neutralization IC50” value is reported as over 10 µg/mL. In the case of B2, the “pseudovirus neutralization IC50” value is reported as 1.36 µg/mL. With B3 the “pseudovirus neutralization IC50” value was over 10 µg/mL. With B4 the “pseudovirus neutralization IC50” value was 7.68 µg/mL. With B5 the “pseudovirus neutralization IC50” value was over 10 µg/mL. In the case of B6, the “pseudovirus neutralization IC50” value is reported as over 10 µg/mL. With B7 the “pseudovirus neutralization IC50” value was over 10 µg/mL. B8 was tested, and the “pseudovirus neutralization IC50” value was over 10 µg/mL. For B9, the “pseudovirus neutralization IC50” value was over 10 µg/mL. With B10 the “pseudovirus neutralization IC50” value was over 10 µg/mL. In the case of B11, the “pseudovirus neutralization IC50” value is reported as 5.68 µg/mL. In the case of B12, the “pseudovirus neutralization IC50” value is reported as 5.73 µg/mL.

These binders were tested against SARS-CoV-2 early D614G spike pseudovirus in the same assay as above.
Protocol: as §1
B1 was tested, and the “pseudovirus neutralization IC50” value was over 10 µg/mL. With B2 the “pseudovirus neutralization IC50” value was over 10 µg/mL. B3 was tested, and the “pseudovirus neutralization IC50” value was over 10 µg/mL. With B4 the “pseudovirus neutralization IC50” value was 1.08 µg/mL. B5 was tested, and the “pseudovirus neutralization IC50” value was 0.00338 µg/mL. With B6 the “pseudovirus neutralization IC50” value was over 10 µg/mL. In the case of B7, the “pseudovirus neutralization IC50” value is reported as 0.0616 µg/mL. With B8 the “pseudovirus neutralization IC50” value was 0.0221 µg/mL. B9 was tested, and the “pseudovirus neutralization IC50” value was over 10 µg/mL. B10 was tested, and the “pseudovirus neutralization IC50” value was over 10 µg/mL. For B11, the “pseudovirus neutralization IC50” value was 3.55 µg/mL. In the case of B12, the “pseudovirus neutralization IC50” value is reported as 5.17 µg/mL.
